# Measurements from PubChem BioAssay AID2314 (National Center for Advancing Translational Sciences (NCATS), 2010).
# The entries are a selection whose mix differs from that of the whole data set. Some salts and complexes are drawn in separate pieces, as the source files them; their charges need not balance. The source made the active and inactive calls. Rule as the data show it: active = max response mostly above about 13% (no sharp cut-off); inactive = mostly below about 14%.
# Assay: Cycloheximide Counterscreen for Small Molecule Inhibitors of Shiga Toxin; also: read at 38.3 µM for the half of the compounds with a filed dose; 0% is about no effect
# Conditions: cell reporter, cycloheximide protein synthesis inhibition counterscreen; stronger effect = higher value
row,Structure (SMILES),max response
1,O=C(NCC1(N2CCOCC2)CCCCC1)c1cc2ccccc2o1,inactive: -5.02%
2,Cc1cc(C)cc(N(C(=O)c2ccccc2)C2CCN(C(=O)OC(C)(C)C)CC2)c1,inactive: -3.15%
3,CCOC(=O)N1CCC(Nc2ccc(OC)cc2)CC1,inactive: 2.71%
4,N#CC1(Nc2ccccc2)CCN(Cc2ccccc2)CC1,inactive: 0.505%
5,O=C(OC1CN2CCC1CC2)C1c2ccccc2Oc2ccccc21 (centres undefined),inactive: -2.1%
6,O=C(NCC1(N2CCCCC2)CCCCC1)c1ccc(=O)[nH]c1,inactive: 1.48%
7,COc1ccc(C(=O)NCC2(N3CCCCC3)CCCCC2)cc1,inactive: 2.39%
8,CC(C)(C)OC(=O)N1CCC(N(C(=O)c2ccccc2)c2ccc(F)cc2)CC1,inactive: -5.81%
9,COc1ccc(C(=O)NCC2(N3CCCCC3)CCCCC2)c(OC)c1OC,inactive: -1.95%
10,CSc1ccccc1C(=O)NCC1(N2CCCCC2)CCCCC1,inactive: 8.04%
11,CCOC(=O)N1CCC(Nc2cccc(C)c2)CC1,inactive: -0.993%
12,COc1cc(C(=O)NCC2(N(C)C)CCCCC2)ccc1OC(F)F,inactive: 0.256%
13,Cc1ccc(OCC(C)C)c(CN(CCCl)CCCl)c1,inactive: 0.778%
14,CCOc1ccc(C)cc1CN(CCCl)CCCl,inactive: 11.3%
15,O=C(NCC1(N2CCCCC2)CCCCC1)c1ccc(F)cc1,inactive: -1.62%
16,CCOC(=O)N1CCC(Nc2ccc(F)cc2)CC1,inactive: 0.35%
17,COc1ccc(NC2CCN(CCc3ccccc3)CC2)c(OC)c1,inactive: -4.56%
18,O=C(NCC1(N2CCCCC2)CCCCC1)c1cccc(C(F)(F)F)c1,inactive: -0.944%
19,O=[N+]([O-])c1cc([N+](=O)[O-])c(NCC2CCS(=O)(=O)C2)c([N+](=O)[O-])c1 (centres undefined),inactive: 5.69%
20,COc1ccc(NC2CCN(C(=O)OC(C)(C)C)CC2)cc1,inactive: 8.8%

row,Structure (SMILES),max response
1,CN1CCN(CCOC(=O)C(O)(c2ccccc2)c2ccccc2)CC1,inactive: -3.22%
2,O=C(NCC1(N2CCOCC2)CCCCC1)c1cc(=O)[nH]c2ccccc12,inactive: 0.981%
3,COc1cc(C(=O)NCC2(N3CCCCC3)CCCCC2)ccc1OC(F)F,inactive: -5.15%
4,O=C(NCC1(N2CCCCC2)CCCCC1)c1ccc(OC(F)F)cc1,inactive: -2.82%
5,O=C(NCC1(N2CCCCC2)CCCCC1)c1cccc([N+](=O)[O-])c1,inactive: -9.65%
6,CCN1CCC(Nc2ccc(Cl)cc2)CC1,inactive: -1.63%
7,N#CC1(Nc2ccccc2)CCN(CCc2ccccc2)CC1,inactive: -4.41%
8,COc1ccc2c(c1O)-c1c(O)c(OC)cc3c1[C@H](C2)[N+](C)(C)CC3.O=[N+]([O-])c1cc([N+](=O)[O-])c([O-])c([N+](=O)[O-])c1[O-],inactive: -5.06%
9,O=C(OC1CN2CCC1CC2)c1ccc([N+](=O)[O-])cc1 (centres undefined),inactive: -2.34%
10,CCCOc1ccc(C(=O)NCC2(N(C)C)CCCCC2)cc1OC,inactive: -5.24%
11,COc1ccc(CN(CCCl)CCCl)cc1Cl,inactive: 8.71%
12,CN(C)c1cccc(C(=O)NCC2(N3CCCCC3)CCCCC2)c1,inactive: -4.27%
13,O=[N+]([O-])c1cc([N+](=O)[O-])c(OC2CCCCC2O)c([N+](=O)[O-])c1 (centres undefined),inactive: 0.771%
14,COc1cc(OC)c(C(=O)NCC2(N(C)C)CCCCC2)cc1OC,inactive: 1.18%
15,N/C(=N\O)c1c(N)no[n+]1[O-],inactive: -10.2%
16,CCOC(=O)N1CCC(Nc2ccc(C)cc2)CC1,inactive: 1.29%
17,O=C(OC1CN2CCC1CC2)C1c2ccccc2C=Cc2ccccc21 (centres undefined),inactive: -3.85%
18,O=C(O)c1cccc(Nc2c([N+](=O)[O-])cc([N+](=O)[O-])cc2[N+](=O)[O-])c1,inactive: -5.55%
19,COc1ccc(C(=O)NCC2(N3CCOCC3)CCCCC2)cc1OC,inactive: -6.41%
20,c1ccc(CN2CCC(Nc3ccccc3)CC2)cc1,inactive: -0.713%

row,Structure (SMILES),max response
1,CCCN1CCC(Nc2cc(OC)cc(OC)c2)CC1,inactive: -1.21%
2,CN(C)C1(CNC(=O)c2cccc(C#N)c2)CCCCC1,inactive: 1.34%
3,CC(C)(C)OC(=O)N1CCC(N(C(=O)c2ccccc2)c2ccc(Cl)cc2)CC1,inactive: -3.3%
4,N#Cc1ccc(C(=O)NCC2(N3CCCCC3)CCCCC2)cc1,inactive: 0.691%
5,CCOC(=O)C(CC)C1=NC(C)(C)Cc2ccccc21.O=[N+]([O-])c1cc([N+](=O)[O-])c(O)c([N+](=O)[O-])c1 (centres undefined),inactive: -2.74%
6,CCN1CCC(Nc2cccc(F)c2)CC1,inactive: -5.83%
7,CN(C)c1ccc(C(=O)NCC2(N3CCCCC3)CCCCC2)cc1,inactive: -1.76%
8,COc1cc(OC)cc(C(=O)NCC2(N3CCCCC3)CCCCC2)c1,inactive: -5.72%
9,Fc1ccccc1NC1CCN(Cc2ccccc2)CC1,inactive: -5.81%
10,CCC(CO)(C(=O)OC1CN2CCC1CC2)c1ccccc1 (centres undefined),inactive: 1.52%
11,COc1cccc(C(=O)N(c2cc(C)cc(C)c2)C2CCN(C(=O)OC(C)(C)C)CC2)c1,inactive: -2.37%
12,COc1cc(OC)cc(C(=O)NCC2(N3CCOCC3)CCCCC2)c1,inactive: -1.86%
13,CCCOc1ccc(C)cc1CN(CCCl)CCCl,inactive: 11.6%
14,CN1CCC(Nc2ccc(Cl)cc2)CC1,inactive: -1.15%
15,CCOc1ncccc1C(=O)NCC1(N2CCOCC2)CCCCC1,inactive: 9.55%
16,CN1CCC(Nc2ccc(F)c(Cl)c2)CC1,inactive: -2.58%
17,CCCOc1ccc(C(=O)NCC2(N(C)C)CCCCC2)cc1,inactive: -0.471%
18,CC(C)(C)OC(=O)N1CCC(Nc2ccccc2)CC1,inactive: -1.72%
19,O=C(O)C1(Nc2ccccc2)CCN(Cc2ccccc2)CC1,inactive: 0.984%
